Results of unrelated studies side by side (data: NIAID ChemDB).

Common to all: growth or infection tests; organism: Human cytomegalovirus; method: plaque count; read-out: EC50

An empty or dashed field is not shown. Rows are shuffled and stem from different studies. ECn: concentration that inhibits the pathogen or its effect by n%. a–b is a range or a potency band.

compound,strain or isolate,cells,value
Nc1nc2c(ncn2COC(CO)CO)c(=O)[nH]1,AD169,HFF,0.78 µM
NC(=O)c1cn([C@@H]2O[C@H](CO)[C@@H](O)[C@@H]2O)c2ncnc(N)c12,TOWNE,HFF,0.8 µM
OC[C@H]1O[C@@H](n2c(Cl)nc3cc(Cl)c(Cl)cc32)[C@H](O)[C@@H]1O,TOWNE,HFF,2.9 µM
O=C1NC(=O)C(c2c[nH]c3ccccc23)C1c1c[nH]c2ccccc12,,VERO,>100 µM
Nc1ccn(C[C@@H](CO)OCP(=O)(O)O)c(=O)n1,Ganciclovir- and HPMPC-resistant,HEL,0.1 µg/mL
O=C1NC(=O)c2c1c1c3ccc(O)cc3[nH]c1c1[nH]c3cc(O)ccc3c21,,VERO,4.6 µM
Nc1ncnc2c1ncn2OCCOCP(=O)(O)O,AD169,MRC-5,>300 µM
COc1ccc2c(c1)COP(=O)(OC[C@H]1O[C@@H](n3cc(/C=C/Br)c(=O)[nH]c3=O)C[C@@H]1O)O2,AD169,HELF,>128 µg/mL
O=C1NC(=O)[C@@H](c2c[nH]c3ccccc23)[C@H]1c1c[nH]c2ccccc12,,VERO,>10 µM
C=C(/C=C/P(=O)(O)O)Cn1cnc2c(=O)[nH]c(N)nc21,AD169,MRC-5,>300 µM
Nc1nc2c(ncn2COC(CO)CO)c(=O)[nH]1,DER530 (GCV HPMPC-resistant),HEL,9.6 µg/mL
Nc1nc(N)c2ncn(CC/C=C/P(=O)(O)O)c2n1,AD169,MRC-5,>300 µM
Nc1ncnc2c1ncn2CCOCP(=O)(O)O,AD169,MRC-5,117 µM
COC(=O)[C@H](C)NP(=O)(OC[C@@H]1C[C@]12C[C@@H]2n1cnc2c(N)ncnc21)Oc1ccccc1,,HFF,0.38 µM
N=c1ccc(=Nc2ccc(N)c3c(O)c4ccccc4c(O)c23)c2c(=O)c3ccccc3c(=O)c1=2,EC,HFF,75 µM
Nc1ncnc2c1ccn2[C@@H]1O[C@H](CO)[C@@H](O)[C@@H]1O,TOWNE,HFF,160 µM
Cc1cc(Nc2ccc(O)c3c2C(=O)c2ccccc2C3=O)cc(S(=O)(=O)O)c1,EC,HFF,120 µM
O=CNc1cn(-c2ccc(F)cc2)c2cc(-c3ccncc3)ccc2c1=O,,,0.048 µg/mL
O=C1NC(=O)c2c1c1c3ccc(F)cc3[nH]c1c1[nH]c3cc(F)ccc3c21,,VERO,0.04 µM
CC(C)C(=O)O[C@H]1C[C@H](n2cc(/C=C/Br)c(=O)[nH]c2=O)O[C@@H]1COP1(=O)OCc2ccccc2O1,AD169,HELF,>128 µg/mL
Nc1nc2c(ncn2/C=C2/C[C@H]2CO)c(=O)[nH]1,AD169,HFF,>429 µM
O=C([O-])CN(CCN(CC(=O)[O-])CC(=O)[O-])CCN(CC(=O)[O-])CC(=O)[O-].[Ca+2].[Na+].[Na+].[Na+],AD169,HEL,4.53 µg/mL
Nc1ncnc2c1ncn2[C@H]1C[C@]12C[C@@H]2CO,TOWNE,HFF,28 µM
COc1ccc2[nH]c3c4[nH]c5ccc(OC)cc5c4c4c(c3c2c1)C(=O)NC4=O,,VERO,10 µM
COc1cc(-c2cc(=O)c3c(O)cc(O)cc3o2)cc(OC)c1O,,,0.05–1.2 µM
OCC1OC(n2c(SCc3ccccc3)nc3nc4cc(Cl)c(Cl)cc4nc32)C(O)C1O,TOWNE,KB,4.2 µM
Cc1cc(C)c(Nc2cc(S(=O)(=O)O)c(N)c3c2C(=O)c2ccccc2C3=O)c(C)c1,EC,HFF,15 µM
Cc1cccc2c1OP(=O)(OC[C@H]1O[C@@H](n3cc(/C=C/Br)c(=O)[nH]c3=O)C[C@@H]1OC(=O)[C@@H](N)Cc1ccccc1)OC2,AD169,HELF,>128 µg/mL
Nc1ncnc2[pH]cnc12,,MRC-5,8.08 µg/mL
CN1C(=O)c2c(c3c4ccccc4[nH]c3c3[nH]c4ccccc4c23)C1=O,,VERO,>100 µM
NC(=O)c1c(Cl)c(-c2cccnc2)n2c1C(O)CCC2,DAVIS,MRC-5,0.015 µM
O=C(NCCc1c[nH]c2ccccc12)C1=Cc2ccncc2CC1,AD169,HS68,0.09 µM
COC(=O)C(C)NP(=O)(OC[C@H]1C/C1=C/n1cnc2c(N)nc(N)nc21)Oc1ccccc1,TOWNE,HFF,3 µM
Cc1cccc2c1OP(=O)(OC[C@H]1O[C@@H](n3cc(/C=C/Br)c(=O)[nH]c3=O)C[C@@H]1OC(=O)[C@H](N)CC(C)C)OC2,AD169,HELF,>128 µg/mL
NC(=O)c1cn([C@H]2C[C@H](O)[C@@H](CO)O2)c2ncnc(N)c12,TOWNE,HFF,0.8 µM
Nc1ncnc2c1ncn2/C=C1/C[C@@H]1CO,AD169,HFF,1.9 µM
CCCC/C(O)=C(\C#N)C(=O)Nc1ccc(C(F)(F)F)cc1,TOWNE,HEL 299,1350–1970 µM
O=C1NC(=O)[C@H](c2c[nH]c3ccccc23)[C@H]1c1c[nH]c2ccccc12,,VERO,>10 µM

Repeating the final 4 entries:

{"compound": "NC(=O)c1cn([C@H]2C[C@H](O)[C@@H](CO)O2)c2ncnc(N)c12", "strain or isolate": "TOWNE", "cells": "HFF", "value": "0.8 µM"}
{"compound": "Nc1ncnc2c1ncn2/C=C1/C[C@@H]1CO", "strain or isolate": "AD169", "cells": "HFF", "value": "1.9 µM"}
{"compound": "CCCC/C(O)=C(\\C#N)C(=O)Nc1ccc(C(F)(F)F)cc1", "strain or isolate": "TOWNE", "cells": "HEL 299", "value": "1350–1970 µM"}
{"compound": "O=C1NC(=O)[C@H](c2c[nH]c3ccccc23)[C@H]1c1c[nH]c2ccccc12", "cells": "VERO", "value": ">10 µM"}